For part of these data: Where a protein sequence is shown, tags need not be part of it. For part of these data: For at least one entry, the source does not settle the construct or the ends of the probe. For part of these data: At least one verdict was read from the data and is not stated in words by the source.
Columns and labels:
[1] = target: CRP (Salmonella enterica serovar Typhimurium ATCC 14028) (UniProt P0A2T6); assay: EMSA; details: 20 uM cAMP; EMSA: 100 ng DNA in 1x TBE, 20 uL, 45 min at room temperature, 12% native PAGE, PargS competitor, 20 uM cAMP for CRP; recombinant protein; residues 1-210; protein details: C-terminal His6; probe letters rebuilt from the primers and the genome
[2] = target: T1, H-NS (Salmonella enterica serovar Typhimurium ATCC 14028) (UniProt P0A1S2); assay: EMSA; details: EMSA: 100 ng DNA in 1x TBE, 20 uL, 45 min at room temperature, 12% native PAGE, PargS competitor, 20 uM cAMP for CRP; recombinant protein; residues 1-137; probe letters rebuilt from the primers and the genome
T1 sequence (looked up): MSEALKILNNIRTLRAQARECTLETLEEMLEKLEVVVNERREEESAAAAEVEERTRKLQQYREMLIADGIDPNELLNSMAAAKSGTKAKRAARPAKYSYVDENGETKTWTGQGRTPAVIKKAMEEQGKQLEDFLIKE

By UniProt entry, the sequences of proteins in these tests, tags left out. Where a name states a change or a piece, a line headed by the entry shows the natural chain unless it says otherwise.
UniProt P0A2T6: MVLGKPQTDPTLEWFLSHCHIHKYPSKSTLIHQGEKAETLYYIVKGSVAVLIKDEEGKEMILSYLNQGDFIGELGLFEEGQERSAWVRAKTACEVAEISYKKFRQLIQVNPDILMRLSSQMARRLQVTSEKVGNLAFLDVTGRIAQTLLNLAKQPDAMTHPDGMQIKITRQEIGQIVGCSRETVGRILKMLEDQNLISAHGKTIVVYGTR

[3] = target: T1, H-NS (Salmonella enterica serovar Typhimurium ATCC 14028); assay: SPR; details: range over six promoters; SPR: streptavidin chip with biotinylated dsDNA, +/-20 uM cAMP for CRP, active protein concentration by CFCA; SPR buffer, pH and temperature not given; recombinant protein; residues 1-137; label: biotin; probe letters rebuilt from the primers and the genome

## CCATTGATGACACACCAAATAAAAACGATAAAAATCAATAAGTTAATTATATTTTTGATTTCTTGCTGCACATACCATCGTATAAAAATCAGCCGTCAAACTTTCAAAATAAAATTTCATAAAAATAAATTTGAAATTTTTAATCCTAAAATTTACATTGAATACGGTATGCGTTTTAGGCTGAAGATAACCAGGCTTTCCTGTGACCGCTCAGTCAGAACGTCGTCAACATCGGTTTAAGAGGATAAAAAAGAGATGGAAACAGTCGGCAATTTTATTCATGGTAAAACGACACTGAGCAGCAGCGGCGAGACGCTACCGGTGACTAATCCGG (double strand) [PiolA EMSA]
[1]
  binding result: binds
[2]
  binding result: binds

## CGGATCCGTTTAGACATGCATGATACTCTAATAGAACGAAAATTTCGTAAATAACCATATTAGCACAAATGAACTGAACATACAGTTAACAACATTCAAATTGCGCTGTGGTTACCTTCAGTACAGAATTTGCTGGCGGGCTGGGTTCTGAGCAATCTGAATCTGACCGCATAAATGCGACAGGATCAGCATTGTTATGACTGGACGATGCCCGCAGCCAGGCGGCATCGCAAACGTTGAAAGGCAGAAGATGACGTTTATAAATCACGAAACCTTCATCTGTTATTGCGAACTGGCTCTTTTCGTGAATTCC (double strand) [PiolR (CRP) EMSA]
[1]
  binding result: binds

## CTTATGTCGGTCATTGCCGTAGCGCTGCCGACGATCTTATAGCTATTGAGAACTCTCGTTTCACAACCTATGTTTTAATTTCAAAACGATCAATAATGAAACTTATGTTTTGTTATGGGTATCACATTTCGAATTTCATAATCCTGGCGTTTTTTATCGTT (double strand) [PiolT1 SPR]
[3]
  binding result: binds

## CTTCAGCCTAAAACGCATACCGTATTCAATGTAAATTTTAGGATTAAAAATTTCAAATTTATTTTTATGAAATTTTATTTTGAAAGTTTGACGGCTGATTTTTATACGATGGTATGTGCAGCAAGAAATCAAAAATATAATTAACTTATTGATTTTTATCGTTTTTATTTGGTGTGTCATCAATGGTTGTCTGTTGTGACGAGGAAAGATTTGGAAAAAATTATGATCTATATAGCATTTTTGTTTCATTTGGTGTGGTATAAAAATTCAAATTTCAGGGGGGTTTCGGCACCACAGTTTCGGATATTGGAGGGTAAATCATGCGCTTGTGCTTCTGTCCTTCAGAACGAGAGAATAAGGCTCA (double strand) [PreiD EMSA]
[1]
  binding result: binds
[2]
  binding result: binds

## GGAATTCTCTCGTTTCACAACCTATGTTTTAATTTCAAAACGATCAATAATGAAACTTATGTTTTGTTATGGGTATCACATTTCGAATTTCATAATCCTGGCGTTTTTTATCGTTAAGATGCTGCGTTTTACGCAGTGCTCTCCTCTATCTTGATGAAGTTACTTGATTTTATTGATTTCGCGACAGTACCTGAACTCAATTTGTCAGGGGCCGTACTTTTTGTTCTTTCCTGGAACATCTCCATTTCGTGATCTTTTGCATGGAATTTTTCTTCTAATGAATGCAAAAATAAAATGAAAAATTTCATTGGTGTGTTGTTTCCTCAACAGGCAAGGGAGGGATTATGTCTCAGAGGATCCG (double strand) [PiolT2 EMSA]
[1]
  binding result: binds
[2]
  binding result: binds

## GTTGGCTTTAGCAACCTTAGTCATTTTCAGAATTACTTCAAAAATAAAGTAGGGAAAACGCCCGGTCAATATCGCAAGGACTATCGTAAAGCTAATTATTTATTATTTGAATATTAATGCTTGCTAAAATTTAATCGTCATGAGAATGGTCGCAATACTGCGGCCATTTTTTATTTGTCGGTATATTTTATGCGTTTATCTATAGCGCGAAAAGTCTGGCAATATCATTAAAGAGTGATGATTTTTTTGTGATACCTGACGCATTTATCCCACTTCTTCAACCAGGATAGATAAAGTTTTTCAGGCTACAAAAAGTAATATGTTGTCCATCAAAGGTTAATTTGCATCGCGGTATGCAGTAAAAGCGTTTCATTAAGTGGGAGCC (double strand) [PiolE EMSA]
[1]
  binding result: binds
